The data set concerns M. mazei Adriase. As to the kind of experiment: Pulldown of M. mazei whole cell extract with bead-coupled tagged M. mazei Adriase, LC-MS/MS of eluate. The conditions noted are these: for Intensity (Experiment 2.3): bait Adriase coupled via C-terminal HA-tag; for Intensity (Experiment 2.2): bait Adriase coupled via C-terminal Myc-tag; for Intensity (Experiment 2.1): bait Adriase coupled via C-terminal Strep-tag.

As to “MtrE: subunit of the M. mazei MtrA-MtrH complex detected in pulldown”, the “Intensity (Experiment 2.3)” value is given as 3.8E+06 arbitrary units, the “Intensity (Experiment 2.2)” value came to 2.2E+06 arbitrary units and the “Intensity (Experiment 2.1)” value is on record as 2.1E+06 arbitrary units.

Consider “MtrG: subunit of the M. mazei MtrA-MtrH complex detected in pulldown”, for which the “Intensity (Experiment 2.3)” value is on record as 1.5E+07 arbitrary units, the “Intensity (Experiment 2.2)” value is recorded as 1.2E+06 arbitrary units and the “Intensity (Experiment 2.1)” value was found to be 8.6E+05 arbitrary units.

On to “MtrH: subunit of the M. mazei MtrA-MtrH complex detected in pulldown”, for which the “Intensity (Experiment 2.3)” value worked out at 2.0E+08 arbitrary units, the “Intensity (Experiment 2.2)” value is on record as 6.5E+07 arbitrary units and the “Intensity (Experiment 2.1)” value is given as 6.0E+07 arbitrary units.
